Results from patent publication US6599747B1, “Soil test” (University of Lancaster, priority 1998, dated 2003).

Test system: catabolocally active microbial culture
Assay: Respirometry: mineralisation of soil-associated 14C-9-phenanthrene (biodegradability)
Conditions: for Concentration Mineralized by microbes: mineralisation to plateau (240 h)

c1ccc2c(c1)ccc1ccccc12 [phenanthrene]
correlation of HPCD-extracted amount with amount biodegraded: slope (25 and 50 mg kg^−1 spikes, ageing 1, 42, 84 d): 1.041 | Concentration Mineralized by microbes (soil spiked 25 mg/kg^−1, aged 1 d): 18.2 mg/kg^−1 | Concentration Mineralized by microbes (soil spiked 25 mg/kg^−1, aged 42 d): 14.9 mg/kg^−1 | Concentration Mineralized by microbes (soil spiked 25 mg/kg^−1, aged 84 d): 14.7 mg/kg^−1 | Concentration Mineralized by microbes (soil spiked 50 mg/kg^−1, aged 1 d): 32.0 mg/kg^−1 | Concentration Mineralized by microbes (soil spiked 50 mg/kg^−1, aged 42 d): 17.8 mg/kg^−1 | Concentration Mineralized by microbes (soil spiked 50 mg/kg^−1, aged 84 d): 1.1 mg/kg^−1
